Anti-infective test results gathered from many reports (values: NIAID ChemDB through PubChem).

Shared fields: tests in culture; species: Plasmodium falciparum; endpoint: EC50

ECn is the concentration giving n% inhibition of infection, replication or growth. Neighbouring rows are from separate reports. An empty or dashed field is not shown.

| structure | cell line | method | mutations | strain or isolate | setting | value |
|---|---|---|---|---|---|---|
| N=C(N)c1ccc(OCCOc2ccc(C(=N)N)cc2[N+](=O)[O-])c([N+](=O)[O-])c1 | - | hypoxanthine uptake | - | D6 | - | 1.092 µM |
| C=C1C[C@@H]2/C=C(\CO)CC/C=C(\C)C[C@H](OC(=O)C(=C)CO)[C@H]2C1=C | Red blood cells | SYBR Green | - | HB3 | - | 0.614 µg/mL |
| Fc1ccc(Nc2nc(NCCCCNc3ccnc4cc(Cl)ccc34)nc(N3CCOCC3)n2)cc1 | - | - | - | W2 | - | 0.11 µM |
| COc1ccc(/C=C/C(=O)c2ccc(-n3cnc4ccccc43)cc2)cc1OC | - | - | - | - | - | 5.04 µg/mL |
| CCCC[C@@H]1C[C@@H]2CC[C@@H]3C[C@H](CCCC)NC(=N1)N32 | - | LDH | - | W2 | - | 7.22 µM |
| C[C@H]1[C@@H](OC(=O)CCC(=O)O)O[C@@H]2O[C@@]3(C)CC[C@H]4[C@H](C)CC[C@@H]1[C@@]24OO3 | Red blood cells | SYBR Green | - | Dd2 | - | 0.002 µg/mL |
| C=CCC[C@@H]1C[C@@H]2CC[C@@H]3C[C@H](CCC=C)NC(=N1)N32 | - | LDH | - | W2 | - | 10.98 µM |
| N#Cc1nc2c(-c3nc4ccccc4[nH]3)c(N)n(CCc3ccccc3)c2nc1C#N | Erythrocytes | hypoxanthine uptake / radiometric | - | NF54 | - | 0.28 µM |
| CCN(CC)CCCC(C)Nc1ccnc2cc(Cl)ccc12 | - | SYBR Green / fluorescence | KAE609-resistant pfatp4 I398F/P990R/D1247Y | KAE609R-1 | - | 0.0123 µM |
| CC1CC2CCC3CC(CCc4cccc(Cl)c4)N=C(N1)N32 | - | LDH | - | D6 | - | 10.09 µM |
| O=C(Nc1cc(C(F)(F)F)ccc1-n1cncn1)C1(c2cccc(C(F)(F)F)c2)CC1 | - | - | - | Dd2 | - | 0.002 µM |
| N=C(N)c1ccc(OCCCOc2ccc(C(=N)N)cc2)cc1 | - | hypoxanthine uptake | - | D6 | - | 0.038 µM |
| NCCSC[C@H](N)C(=O)N(O)C1C[C@@H](C(N)=O)N(C(=O)c2ccc3nc(-c4ccccc4Br)[nH]c3c2)C1 | Red blood cells | flow cytometry | - | 3D7 | 48 h | 551 µM |
| N#Cc1nc2c(-c3nc4ccccc4[nH]3)c(N)n(Cc3ccc(O)c(O)c3)c2nc1C#N | Erythrocytes | hypoxanthine uptake / radiometric | - | NF54 | - | 5.23 µM |
| CCCCCCCCCCCCCCCC#CC(=O)O | - | - | - | K1 | - | 21.7 µM |
| CCCCCC(=O)NCCCCCC(=O)NC(CCCC[NH3+])C(=O)NCCCCCCCCCCCC(=O)NC(CCCC[NH3+])C(N)=O | - | hypoxanthine uptake | - | NF54 | - | 5.6 µM |
| Cc1cccc(CC[C@H]2C[C@H]3CC[C@H]4C[C@@H](CCc5cccc(C)c5)NC(=N2)N34)c1 | - | LDH | - | D6 | - | 4.23 µM |
| COc1ccc(/C=C/C(=O)c2ccc(N3CCN(C)CC3)cc2)cc1 | - | - | - | - | - | 6.9 µg/mL |
| C[C@H]1CCc2c([nH]c3ccccc23)[C@@]2(N1)C(=O)Nc1ccc(Cl)cc12 | - | SYBR Green / fluorescence | GNF-Pf4492-resistant I203L/P990R | GNF-Pf4492R-2 | - | 0.149 µM |
| COc1ccc(Cn2c(N)c(-c3nc4ccccc4[nH]3)c3nc(C#N)c(C#N)nc32)cc1O | Erythrocytes | hypoxanthine uptake / radiometric | - | NF54 | - | 1.27 µM |
| N=C(N)c1ccc(OCCOc2ccc(C(=N)N)cc2)cc1 | - | hypoxanthine uptake | - | D6 | - | 0.294 µM |
| CCCCCCCCCCCC(=O)NC(CCCC[NH3+])C(=O)NCCCCCCCC(=O)NC(CCCC[NH3+])C(=O)NCCCCCCCC(=O)NC(CCCC[NH3+])C(=O)NCCCCCCCC(=O)NC(CCCC[NH3+])C(=O)NCCCCCCCC(=O)NC(CCCC[NH3+])C(N)=O | - | hypoxanthine uptake | - | FCR3 | - | 2.4 µM |
| COc1ccc(CCn2c(N)c(-c3nc4ccccc4n3C)c3nc(C#N)c(C#N)nc32)cc1 | Erythrocytes | hypoxanthine uptake / radiometric | - | NF54 | - | 4.8 µM |
| CC[C@H]1OC(=O)[C@H](C)[C@@H](OC2C[C@@](C)(OC)[C@@H](O)[C@H](C)O2)[C@H](C)[C@@H](OC2O[C@H](C)C[C@H](N(C)C)[C@H]2O)[C@](C)(OC2C[C@@H](N(C)C)[C@@H](O)[C@H](C)O2)C[C@@H](C)CN(C)[C@H](C)[C@@H](O)[C@]1(C)O | RBC | fluorescence | - | 3D7 | 120 h | 0.16 µM |
| OCCNc1nc(NCCNc2ccnc3cc(Cl)ccc23)nc(N2CCOCC2)n1 | - | - | - | W2 | - | 1.7 µM |
| O=C(Nc1cc(C(F)(F)F)ccc1-n1cncn1)C1(c2ccccc2)CC1 | - | - | - | HB3 | - | 0.164 µM |
| CC(C)CCCC1CC2CCC3CC(C)NC(=N1)N23 | - | LDH | - | D6 | - | 3.04 µM |
| Cn1nc(C(F)(F)F)c(-c2ccc(Br)cc2)c1NC(=O)Nc1ccc(F)cc1F | - | SYBR Green / fluorescence | KAE678-resistant (G223R) | KAE678R-1 | - | 1.41 µM |
| CCCCCC(=O)CCCCCC(=O)NC(CCCC[NH3+])C(=O)NC(CCCC[NH3+])C(=O)NCCCCCCCCCCCC(=O)NC(CCCC[NH3+])C(N)=O | - | hypoxanthine uptake | - | NF54 | - | >10 µM |
| CC(C)CCCC1CC2CCCC3CC(C)NC(=N1)N23 | - | LDH | - | D6 | - | 4.69 µM |
| Fc1ccc(Nc2nc(NCCCNc3ccnc4cc(Cl)ccc34)nc(N3CCOCC3)n2)cc1 | - | - | - | D6 | - | 0.43 µM |
| COc1ccc(OC)c(/C=C/C(=O)c2ccc(N3CCCCC3)cc2)c1 | - | - | - | - | - | 6.13 µg/mL |
| CC[C@H]1OC(=O)[C@H](C)[C@@H](OC2C[C@@](C)(OC)[C@@H](O)[C@H](C)O2)[C@H](C)[C@@H](OC2O[C@H](C)C[C@H](N(C)C)[C@H]2O)[C@](C)(OC2C[C@@H](O)[C@H](O)[C@H](C)O2)C[C@@H](C)C(=O)[C@H](C)[C@@H](O)[C@]1(C)O | RBC | fluorescence | - | W2 Mef | 120 h | 5.1 µM |
| N=C(N)c1ccc(OCCCCCOc2ccc(C(=N)N)cc2)cc1 | - | hypoxanthine uptake | - | D6 | - | 0.051 µM |
| COc1ccc(/C=C/C(=O)c2ccc(-n3nnc4ccccc43)cc2)cc1OC | - | - | - | - | - | 3.5 µg/mL |
| Fc1ccc(Nc2nc(NCCNc3ccnc4cc(Cl)ccc34)nc(N3CCOCC3)n2)cc1 | - | - | - | W2 | - | 0.48 µM |
| COc1ccc(/C=C/C(=O)c2ccc(-n3ccnc3)cc2)cc1OC | - | - | - | - | - | 7.34 µg/mL |
| C=CCC[C@@H]1C[C@@H]2CCC[C@@H]3C[C@H](CCC=C)NC(=N1)N32 | - | LDH | - | W2 | - | 7.66 µM |
| COc1cc2c(NC3CCN(C)CC3)nc(N3CCCN(C)CC3)nc2cc1OCc1ccccc1 | - | fluorescence | - | Dd2 | - | 0.065 µM |
| Cc1cccc(CC[C@H]2C[C@H]3CCC[C@H]4C[C@@H](CCc5cccc(C)c5)NC(=N2)N34)c1 | - | LDH | - | W2 | - | 2.26 µM |
| NCCCC[C@H](N)C(=O)N(O)C1C[C@@H](C(N)=O)N(C(=O)c2ccccc2-c2ncc(-c3ccccc3)o2)C1 | Red blood cells | flow cytometry | - | 3D7 | 96 h | 427.1 µM |
| NC(=O)C(CCCC[NH3+])NC(=O)CCCCCCCCCCCNC(=O)C(CCCC[NH3+])NC(=O)CCCCCCCCCCCNC(=O)C(N)CCCC[NH3+] | - | hypoxanthine uptake | - | FCR3 | - | 15 µM |

Repeating the final 3 entries:

structure	cell line	method	mutations	strain or isolate	setting	value
Cc1cccc(CC[C@H]2C[C@H]3CCC[C@H]4C[C@@H](CCc5cccc(C)c5)NC(=N2)N34)c1	-	LDH	-	W2	-	2.26 µM
NCCCC[C@H](N)C(=O)N(O)C1C[C@@H](C(N)=O)N(C(=O)c2ccccc2-c2ncc(-c3ccccc3)o2)C1	Red blood cells	flow cytometry	-	3D7	96 h	427.1 µM
NC(=O)C(CCCC[NH3+])NC(=O)CCCCCCCCCCCNC(=O)C(CCCC[NH3+])NC(=O)CCCCCCCCCCCNC(=O)C(N)CCCC[NH3+]	-	hypoxanthine uptake	-	FCR3	-	15 µM